Biological target: T1, HIV-1 envelope glycoprotein gp140 (HIV-1 group M subtype B, isolate YU2, UniProt P35961)
T1 construct: also called gp140-F; gp140-F immunogen
Test: ELISA
Conditions: both partners purified

B1: putative germline form of GE356 MAb (antibody, V domains shown)
VH: QVQLVQSGAEVKKPGSSVKVSCKASGYTFTDYYMHWVRQAPGQGLEWMGEINPKTGGTNYAQKFQGRVTMTRDTSTSTAYMELSSLRSEDTAVYYCARGGQRLLLLRNYYFYYWGQGVLVTVSS
VL: QSVLTQPPSVSGAPGQKVTISCTGSSSNIGGYDVHWYQQLPGTAPKLLIYDNNKRPSGISDRFSGSKSGTSASLAITGLQTEDEADYYCQSYDSSLNAWVFGGGTRLTVL
notes: also called putative germline GE356; putative germline version of GE356
B1: binds.
